Measurements as given in patent publication US10233179B2, “Thiazoles and uses thereof” (AbbVie Inc., priority 2013, dated 2019).

Test system: RSV (Group A, Long Strain)
Assay: Antiviral cytopathic effect (CPE) protection assay, MTT readout
Type: cell-based, human respiratory syncytial virus (RSV)
Set-up: key: NW: No window
Conditions: ratio of MTT TD50 to RSV EC50; NW = no window
Description: HEp-2 cells and RSV (Group A, Long Strain) were obtained from the American Type Culture Collection (Manassas, Va.).
A cytopathic effect (CPE) protection assay was performed to determine the ability of a compound to protect the cells from viral infection and thus the CPE induced by viral infection. 96-Well plates were first seeded with 3×10^3 HEp-2 cells per well in Dulbecco's modified Eagle's medium (DMEM) containing 10% fetal bovine serum (FBS). One day after the cells were seeded, they were preincubated with serial dilutions of compounds prepared in 100 μL assay medium (DMEM mixed with F12 medium at a 1:1 ratio, supplemented with 2% FBS and 1 mM sodium pyruvate) for 1 hour at 37° C. 100 μL of assay medium containing 0.2 multiplicity of infection (MOI) of RSV was then added to each well of cells. In addition to wells containing infected cells incubated with compounds, each plate also contained replicates of two kinds of controls: (1) Virus control contained cells infected with 0.2 MOI of RSV in assay medium, (2) Uninfected cell control contained cells incubated with assay medium only. After 4 days of incubation at 37° C., the viability of cells was assessed using MTT (Thiazolyl blue tetrazolium bromide, Sigma). A stock solution of MTT, at a concentration of 4 mg/mL in phosphate-buffered saline, was added to all wells at 25 μL per well. Plates were further incubated for 4 hours, and each well was then treated with 50 μL of a solution containing 20% sodium dodecyl sulfate (SDS) and 0.02 N HCl. After an overnight incubation, the plates were measured on a BioTek® microtiter plate reader at wavelengths of 570 nm and 650 nm. The MTT detection is based on the fact that viable (uninfected) cells can reduce the tetrazolium salts into colored formazan products, which can then be quantitated by spectrometry. Based on the spectrometric absorbance of each sample, the percent of protection from CPE, which is an indicator of protection from viral infection, can be calculated for each compound and the 50% effective concentrations (EC50) can be calculated using a nonlinear regression curve fitting equation provided by the GraphPad Prism® 4 software.
Compounds were tested to determine both their antiviral and toxicity to determine their therapeutic window. Determination of the EC50 and TD50 of these active compounds were repeated one additional time to confirm the window.

Structure (SMILES) | Window (TD50/EC50)
c1cc(CN(Cc2cccn2-c2nccs2)CC2C[C@H]3CC[C@@H]2C3)n(-c2nccs2)c1 (stereo partly drawn) [Example 32, 1-[(1R,4S)-bicyclo[2.2.1]hept-2-yl]-N,N-bis{[1-(1,3-thiazol-2-yl)-1H-pyrrol-2-yl]methyl}methanamine] | 10
c1cc(CN(Cc2cccn2-c2nccs2)CC2CCCO2)n(-c2nccs2)c1 (centres unmarked) [Example 33, 1-(tetrahydrofuran-2-yl)-N,N-bis{[1-(1,3-thiazol-2-yl)-1H-pyrrol-2-yl]methyl}methanamine] | 3
FC(F)(F)c1ccc(CN(Cc2cccn2-c2nccs2)Cc2cccn2-c2nccs2)cc1 [Example 34, 1-[1-(1,3-thiazol-2-yl)-1H-pyrrol-2-yl]-N-{[1-(1,3-thiazol-2-yl)-1H-pyrrol-2-yl]methyl}-N-[4-(trifluoromethyl)benzyl]methanamine] | 10
Cc1cc(N(Cc2cccn2-c2nccs2)Cc2cccn2-c2nccs2)n(-c2ccccc2)n1 [Example 35, 3-methyl-1-phenyl-N,N-bis{[1-(1,3-thiazol-2-yl)-1H-pyrrol-2-yl]methyl}-1H-pyrazol-5-amine] | >677
Clc1cccc(Cl)c1CN(Cc1cccn1-c1nccs1)Cc1cccn1-c1nccs1 [Example 36, 1-(2,6-dichlorophenyl)-N,N-bis{[1-(1,3-thiazol-2-yl)-1H-pyrrol-2-yl]methyl}methanamine] | 719
Cc1ccccc1CN(Cc1cccn1-c1nccs1)Cc1cccn1-c1nccs1 [Example 37, 1-(2-methylphenyl)-N,N-bis{[1-(1,3-thiazol-2-yl)-1H-pyrrol-2-yl]methyl}methanamine] | 213
Clc1cnc(CN(Cc2cccn2-c2nccs2)Cc2cccn2-c2nccs2)c(Cl)c1 [Example 38, 1-(3,5-dichloropyridin-2-yl)-N,N-bis{[1-(1,3-thiazol-2-yl)-1H-pyrrol-2-yl]methyl}methanamine] | 35
CC(C)CN(Cc1cccn1-c1nccs1)Cc1cccn1-c1nccs1 [Example 39, 2-methyl-N,N-bis{[1-(1,3-thiazol-2-yl)-1H-pyrrol-2-yl]methyl}propan-1-amine] | 2
Fc1ccccc1CN(Cc1cccn1-c1nccs1)Cc1cccn1-c1nccs1 [Example 40, 1-(2-fluorophenyl)-N,N-bis{[1-(1,3-thiazol-2-yl)-1H-pyrrol-2-yl]methyl}methanamine] | 353
Cc1c(C(C)N(Cc2cccn2-c2nccs2)Cc2ncc(-c3ccccc3)n2C)cnn1-c1cccc(F)c1 (centres unmarked) [Example 41, 1-[1-(3-fluorophenyl)-5-methyl-1H-pyrazol-4-yl]-N-[(1-methyl-5-phenyl-1H-imidazol-2-yl)methyl]-N-{[1-(1,3-thiazol-2-yl)-1H-pyrrol-2-yl]methyl}ethanamine] | NW
Clc1ccc(CN(Cc2cccn2-c2nncs2)Cc2cccn2-c2nncs2)c(Cl)c1 [Example 42, 1-(2,4-dichlorophenyl)-N,N-bis{[1-(1,3,4-thiadiazol-2-yl)-1H-pyrrol-2-yl]methyl}methanamine] | NW
Cc1cc(N(Cc2cccn2-c2nncs2)Cc2cccn2-c2nncs2)n(-c2ccc(F)cc2)n1 [Example 43, 1-(4-fluorophenyl)-3-methyl-N,N-bis{[1-(1,3,4-thiadiazol-2-yl)-1H-pyrrol-2-yl]methyl}-1H-pyrazol-5-amine] | NW
FC(F)(F)c1cccc(CN(Cc2cccn2-c2nccs2)Cc2cccn2-c2nccs2)c1 [Example 44, 1-[1-(1,3-thiazol-2-yl)-1H-pyrrol-2-yl]-N-{[1-(1,3-thiazol-2-yl)-1H-pyrrol-2-yl]methyl}-N-[3-(trifluoromethyl)benzyl]methanamine] | 327
N#Cc1ccc(CN(Cc2cccn2-c2nccs2)Cc2cccn2-c2nccs2)cc1 [Example 45, 4-[(bis{[1-(1,3-thiazol-2-yl)-1H-pyrrol-2-yl]methyl}amino)methyl]benzonitrile] | >33
CC(c1ccc(Cl)c(Cl)c1)N(Cc1cccn1-c1nccs1)Cc1cccn1-c1nccs1 (centres unmarked) [Example 46, 1-(3,4-dichlorophenyl)-N,N-bis{[1-(1,3-thiazol-2-yl)-1H-pyrrol-2-yl]methyl}ethanamine] | >58
Clc1ccccc1CN(Cc1cccn1-c1nccs1)Cc1cccn1-c1nccs1 [Example 47, 1-(2-chlorophenyl)-N,N-bis{[1-(1,3-thiazol-2-yl)-1H-pyrrol-2-yl]methyl}methanamine] | 472

Structure (SMILES) | Window (TD50/EC50)
C[C@H](c1ccccc1Cl)N(Cc1cccn1-c1nccs1)Cc1cccn1-c1nccs1 [Example 48, (1R)-1-(2-chlorophenyl)-N,N-bis{[1-(1,3-thiazol-2-yl)-1H-pyrrol-2-yl]methyl}ethanamine] | 63
C[C@@H](c1ccccc1Cl)N(Cc1cccn1-c1nccs1)Cc1cccn1-c1nccs1 [Example 49, (1S)-1-(2-chlorophenyl)-N,N-bis{[1-(1,3-thiazol-2-yl)-1H-pyrrol-2-yl]methyl}ethanamine] | 97
c1cnnc(N(Cc2cccn2-c2nccs2)Cc2cccn2-c2nccs2)c1 [Example 50, N,N-bis{[1-(1,3-thiazol-2-yl)-1H-pyrrol-2-yl]methyl}pyridazin-3-amine] | NW
c1ccc(C2(CCN(Cc3cccn3-c3nccs3)Cc3cccn3-c3nccs3)CC2)nc1 [Example 51, 2-[1-(pyridin-2-yl)cyclopropyl]-N,N-bis{[1-(1,3-thiazol-2-yl)-1H-pyrrol-2-yl]methyl}ethanamine] | 137
c1cc(CN(Cc2cccn2-c2nccs2)C2CCCCC2)n(-c2nccs2)c1 [Example 52, N,N-bis{[1-(1,3-thiazol-2-yl)-1H-pyrrol-2-yl]methyl}cyclohexanamine] | 72
c1ccc(N(Cc2cccn2-c2nccs2)Cc2cccn2-c2nccs2)cc1 [Example 53, N,N-bis{[1-(1,3-thiazol-2-yl)-1H-pyrrol-2-yl]methyl}aniline] | >12
FC(F)(F)c1ccc(CN(Cc2cccn2-c2nncs2)Cc2cccn2-c2nncs2)cc1 [Example 54, 1-[1-(1,3,4-thiadiazol-2-yl)-1H-pyrrol-2-yl]-N-{[1-(1,3,4-thiadiazol-2-yl)-1H-pyrrol-2-yl]methyl}-N-[4-(trifluoromethyl)benzyl]methanamine] | NW
Clc1cccc(Cl)c1CN(Cc1cccn1-c1nncs1)Cc1cccn1-c1nncs1 [Example 55, 1-(2,6-dichlorophenyl)-N,N-bis{[1-(1,3,4-thiadiazol-2-yl)-1H-pyrrol-2-yl]methyl}methanamine] | NW
N#Cc1ccc(CN(Cc2cccn2-c2nncs2)Cc2cccn2-c2nncs2)cc1 [Example 56, 4-[(bis{[1-(1,3,4-thiadiazol-2-yl)-1H-pyrrol-2-yl]methyl}amino)methyl]benzonitrile] | >2.2
FC1(F)CCC(CN(Cc2cccn2-c2nccs2)Cc2cccn2-c2nccs2)CC1 [Example 57, 1-(4,4-difluorocyclohexyl)-N,N-bis{[1-(1,3-thiazol-2-yl)-1H-pyrrol-2-yl]methyl}methanamine] | 64
FC(F)(F)Cn1cc(CN(Cc2cccn2-c2nccs2)Cc2cccn2-c2nccs2)cn1 [Example 58, 1-[1-(1,3-thiazol-2-yl)-1H-pyrrol-2-yl]-N-{[1-(1,3-thiazol-2-yl)-1H-pyrrol-2-yl]methyl}-N-{[1-(2,2,2-trifluoroethyl)-1H-pyrazol-4-yl]methyl}methanamine] | 94
FC(F)n1ccnc1CN(Cc1cccn1-c1nccs1)Cc1cccn1-c1nccs1 [Example 59, 1-[1-(difluoromethyl)-1H-imidazol-2-yl]-N,N-bis{[1-(1,3-thiazol-2-yl)-1H-pyrrol-2-yl]methyl}methanamine] | 9
c1cncc(C2(CCN(Cc3cccn3-c3nccs3)Cc3cccn3-c3nccs3)CC2)c1 [Example 60, 2-[1-(pyridin-3-yl)cyclopropyl]-N,N-bis{[1-(1,3-thiazol-2-yl)-1H-pyrrol-2-yl]methyl}ethanamine] | >117
c1cc(CN(Cc2cccn2-c2nncs2)C[C@H]2CCOC2)n(-c2nncs2)c1 [Example 61, 1-[(3R)-tetrahydrofuran-3-yl]-N,N-bis{[1-(1,3,4-thiadiazol-2-yl)-1H-pyrrol-2-yl]methyl}methanamine] | NW
C[C@H](c1ccc(F)cc1)N(Cc1cccn1-c1nccs1)Cc1cccn1-c1nccs1 [Example 62, (1R)-1-(4-fluorophenyl)-N,N-bis{[1-(1,3-thiazol-2-yl)-1H-pyrrol-2-yl]methyl}ethanamine] | NW
c1coc(CN(Cc2cccn2-c2nccs2)Cc2cccn2-c2nccs2)c1 [Example 63, 1-(furan-2-yl)-N,N-bis{[1-(1,3-thiazol-2-yl)-1H-pyrrol-2-yl]methyl}methanamine] | 77
